Experimental data: PubChem BioAssay AID624099 (ICCB-Longwood, 2012)

Aim: 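Knock-downs relieving repression by E2 of an HPV18 LCR luciferase reporter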 (primary screen)
System: human C33A cervical carcinoma cells (HPV-negative) stably expressing BPV1 E2 and an HPV18 LCR luciferase reporter
Reagents: siRNA pool against human genes, 40 nM
Timing: 72 h
Measured: 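Per-well luciferase luminescence, z-scored on each plate against the plate mean and SD with control wells left out, then averaged across three replicate plates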
Direction: mean z-score and z-score: higher = stronger reporter signal, weaker E2 silencing
Active means: 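Mean z ≥ 2 together with z ≥ 2 in two or more of the three replicates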
Shown is a random part of about 21,000 reagents. Of all reagents, 497 (2.4%) were called active. 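Higher z means weaker E2 silencing; only reporter increases were scored, and knock-downs that hurt cell survival may mask genuine repressor factors.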

For WDR45 the deposit lists mean z-score -0.33; z-score, replicate A = -0.34; z-score, replicate B = -0.4; z-score, replicate C = -0.24; inactive.
Depletion of CHI3L2 resulted in: mean z-score -0.11; z-score, replicate A = -0.31; z-score, replicate B = -0.02; z-score, replicate C = 0; inactive.
Knock-down of GEMIN6 came out at: mean z-score 0.47; z-score, replicate A = 0.34; z-score, replicate B = 0.74; z-score, replicate C = 0.32; inactive.
Knock-down of ACOT8 resulted in: mean z-score 1.36; z-score, replicate A = 1.53; z-score, replicate B = 1.29; z-score, replicate C = 1.24; inactive.
After knock-down of USP7 the results were mean z-score -0.49; z-score, replicate A = -0.37; z-score, replicate B = -0.69; z-score, replicate C = -0.42; inactive.
ZDHHC21 showed mean z-score -0.08; z-score, replicate A = 0.18; z-score, replicate B = -0.21; z-score, replicate C = -0.21; inactive.
PRUNE1 showed mean z-score 1.03; z-score, replicate A = 1.37; z-score, replicate B = 0.68; z-score, replicate C = 1.05; inactive.
Silencing of RPS6KB2 came out at: mean z-score -0.29; z-score, replicate A = -0.18; z-score, replicate B = -0.36; z-score, replicate C = -0.33; inactive.
Against DNAJC8, the entry reads mean z-score 0.66; z-score, replicate A = 0.65; z-score, replicate B = 0.9; z-score, replicate C = 0.44; inactive.
Depletion of AKAP17A resulted in: mean z-score -0.52; z-score, replicate A = -0.54; z-score, replicate B = -0.53; z-score, replicate C = -0.48; inactive.
Against GP6, the entry reads mean z-score -0.07; z-score, replicate A = 0.16; z-score, replicate B = -0.11; z-score, replicate C = -0.25; inactive.
Silencing of SEC14L1 gave: mean z-score -0.09; z-score, replicate A = -0.27; z-score, replicate B = -0.09; z-score, replicate C = 0.08; inactive.
Against PCNP, the values are mean z-score 0.6; z-score, replicate A = 0.58; z-score, replicate B = 0.5; z-score, replicate C = 0.71; inactive.
Depletion of PMP2 came out at: mean z-score -0.09; z-score, replicate A = -0.2; z-score, replicate B = -0.13; z-score, replicate C = 0.06; inactive.
After knock-down of AR, the screen gave mean z-score -0.96; z-score, replicate A = -0.96; z-score, replicate B = -0.99; z-score, replicate C = -0.93; inactive.
Silencing of RFLNA gave: mean z-score 0.4; z-score, replicate A = 0.45; z-score, replicate B = 0.35; z-score, replicate C = 0.39; inactive.
Knock-down of GDI2 resulted in: mean z-score 2.05; z-score, replicate A = 2.01; z-score, replicate B = 2.06; z-score, replicate C = 2.07; active.
Depletion of TAS2R7 gave: mean z-score -1.75; z-score, replicate A = -1.98; z-score, replicate B = -1.6; z-score, replicate C = -1.69; inactive.
Knock-down of HIP1R resulted in: mean z-score 0.39; z-score, replicate A = 0.69; z-score, replicate B = 0.21; z-score, replicate C = 0.25; inactive.
CCDC167 showed mean z-score 0.22; z-score, replicate A = -0.01; z-score, replicate B = 0.42; z-score, replicate C = 0.24; inactive.
Depletion of C6orf132 came out at: mean z-score 2.03; z-score, replicate A = 1.58; z-score, replicate B = 2.04; z-score, replicate C = 2.46; active.

Part of the list above in another layout:
gene symbol	mean z-score	z-score, replicate A	z-score, replicate B	z-score, replicate C	call
ZDHHC21	-0.08	0.18	-0.21	-0.21	inactive
PRUNE1	1.03	1.37	0.68	1.05	inactive
